Measurements reported in patent US6534530B1, “Antipicornaviral compounds and compositions, their pharmaceutical uses, and materials for their synthesis” (Agouron Pharmaceuticals, Inc., priority 1999, dated 2003).

System: HRV-14
Assay: Antirhinoviral H1-HeLa cell culture assay (XTT), HRV-14
Format: cell-based, human rhinovirus
Conditions: CC50/EC50

| SMILES | TI |
| --- | --- |
| Cc1cc(CCCCCCCOc2ccc(C3=N[C@@H](C)CO3)cc2)on1 [WIN52084, reference compound] | >143 |
| CC(C)C[C@H](NC(=O)OCc1ccccc1)C(=O)N[C@@H](Cc1ccccc1)C(=O)N[C@@H](CCC(N)=O)C(=O)c1nc2ccccc2s1 [Compound 20, Cbz-L-Leu-L-Phe-L-Gln-2-Benzthiazole] | >6 |
| Cc1cc(CCCOc2c(C)cc(-c3noc(C(F)(F)F)n3)cc2C)on1 [Pleconaril, reference compound] | >1000 |
| CC(C)C[C@H](NC(=O)OCc1ccccc1)C(=O)N[C@@H](Cc1ccccc1)C(=O)N[C@@H](C[C@@H]1CCNC1=O)C(=O)c1nc2ccccc2s1 [Compound 21, Cbz-L-Leu-L-Phe-L-[(S)-Pyrrol-Ala]-2-Benzthiazole] | >100 |
| CC(C)C[C@H](NC(=O)OCc1ccccc1)C(=O)N[C@@H](Cc1ccccc1)C(=O)N[C@@H](C[C@@H]1CCNC1=O)C(=O)c1ccccn1 [Compound 23, Cbz-L-Leu-L-Phe-L-[(S)-Pyrrol-Ala]-2-Pyridine] | 50 |
| Cc1cc(CCCCCOc2c(Cl)cc(C3=NCCO3)cc2Cl)on1 [WIN54954, reference compound] | >30 |
| Cc1cc(CCCCCCCOc2ccc(C3=NCCO3)cc2)on1 [WIN51711, reference compound] | >77 |
| CCOC(=O)c1ccc(OCCC2CCN(c3ccc(C)nn3)CC2)cc1 [Pirodavir, reference compound] | >300 |
| CC(=O)NC[C@@H](NC(=O)[C@H](Cc1ccccc1)NC(=O)[C@H](CC(C)C)NC(=O)OCc1ccccc1)C(=O)C(=O)N1CCCCC1 [Compound 12, Cbz-L-Leu-L-Phe-D-(N-Ac-amino-Ala)-C(O)-Piperidine] | 2 |
| CC(C)C[C@H](NC(=O)OCc1ccccc1)C(=O)N[C@@H](Cc1ccccc1)C(=O)N[C@@H](C[C@@H]1CCNC1=O)C(=O)c1nccs1 [Compound 22, Cbz-L-Leu-L-Phe-L-[(S)-Pyrrol-Ala]-2-Thiazole] | 30 |
| Cc1cc(C(=O)N[C@H](C(=O)N[C@@H](Cc2ccc(F)cc2)C(=O)N[C@@H](C[C@@H]2CCNC2=O)C(=O)c2nc3ccccc3s2)C(C)C)no1 [Compound 28, (5-Methylisoxazole-3-carboxyl)-L-Val-L-Phe(4-F)-L-[(S)-Pyrrol-Ala]-2-Benzthiazole] | 749 |
| CNC(=O)C(=O)[C@H](CNC(C)=O)NC(=O)[C@H](Cc1ccccc1)NC(=O)[C@H](CC(C)C)NC(=O)OCc1ccccc1 [Compound 10, Cbz-L-Leu-L-Phe-L-(N-Ac-amino-Ala)-C(O)NHCH3] | >1 |
